# Data reported in the supplement of paper PMC3578754.
# Fold change is the IC50 on the isolate divided by the IC50 on a reference virus; 1 = unchanged, higher = more resistant. Changes are given against the subtype B consensus. No active / inactive call. The values were gathered from many studies (numbered anew) with different assays, which the source does not name. Most viruses are clinical isolates; some are laboratory strains or clones with known resistance changes. Isolates with mixed residues are left out; stretches that were not sequenced show no change. Round top values that many isolates share are read here as limits; other very high values and 0.1 may be limits too. For part of these data: The protease changes I3V and N37S, insertions and deletions cannot be read from the source.
# Legend:
# [1] = compound: CC(C)(C)NC(=O)[C@@H]1C[C@@H]2CCCC[C@@H]2CN1C[C@@H](O)[C@H](Cc1ccccc1)NC(=O)[C@H](CC(N)=O)NC(=O)c1ccc2ccccc2n1 [saquinavir]; experiment: fold change of IC50 against reference virus; higher = more resistant; Cell-culture drug susceptibility tests of virus bearing the protease of each isolate, gathered from many studies.
# [2] = compound: Cc1cccc(C)c1OCC(=O)N[C@@H](Cc1ccccc1)[C@@H](O)C[C@H](Cc1ccccc1)NC(=O)[C@H](C(C)C)N1CCCNC1=O [lopinavir]; experiment: as above
# [3] = compound: CC(C)(C)NC(=O)[C@@H]1CN(Cc2cccnc2)CCN1C[C@@H](O)C[C@@H](Cc1ccccc1)C(=O)N[C@H]1c2ccccc2C[C@H]1O [indinavir]; experiment: as above
# [4] = compound: CC(C)c1nc(CN(C)C(=O)N[C@H](C(=O)N[C@@H](Cc2ccccc2)C[C@H](O)[C@H](Cc2ccccc2)NC(=O)OCc2cncs2)C(C)C)cs1 [ritonavir]; experiment: as above
# [5] = compound: Cc1c(O)cccc1C(=O)N[C@@H](CSc1ccccc1)[C@H](O)CN1C[C@H]2CCCC[C@H]2C[C@H]1C(=O)NC(C)(C)C [nelfinavir]; experiment: as above
# [6] = compound: Cc1cn([C@H]2C[C@H](N=[N+]=[N-])[C@@H](CO)O2)c(=O)[nH]c1=O [zidovudine]; experiment: fold change of IC50 against reference virus; higher = more resistant
# Protocol: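 Cell-culture drug susceptibility tests of virus bearing the reverse transcriptase of each isolate, gathered from many studies.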
Test System,fold change of IC50 against reference virus [1],fold change of IC50 against reference virus [2],fold change of IC50 against reference virus [3],fold change of IC50 against reference virus [4],fold change of IC50 against reference virus [5],fold change of IC50 against reference virus [6]
"HIV-1 isolate 44 (protease changes: I13V K20I E35D M36I R41K H69K T74S L89M, study 114)",1.5,1.3,1,1.6,,
"HIV-1 isolate 185 (protease changes: L10I M46I L63P A71V G73S V82T L90M, study 58)",25.4,18.1,31.1,,30,
"HIV-1 isolate 216 (protease changes: V82A, study 62)",,4,,12,,
"HIV-1 isolate 225 (protease changes: L10I M46I L63P A71T I84V L90M, study 58)",5.7,3.8,3.5,,6,
"HIV-1 isolate 270 (protease changes: V82F I84V, study 58)",1.8,2.3,2.4,,3.6,
"HIV-1 isolate 322 (protease changes: I15V, study 62)",,1,,,,
"HIV-1 isolate 344 (protease changes: L10F V32I M46I I47V R57G I84V T91S, study 105)",2,46,,17,,
"HIV-1 isolate 384 (protease changes: V82F, study 62)",,3,,52,,
"HIV-1 isolate 400 (protease changes: G48V L90M, study 58)",24.7,1.2,6.2,,7.6,
"HIV-1 isolate 431 (protease changes: L10I K20R M36I M46L G48V I54T Q58E L63P A71V V82A, study 6)",,86.4,150,,157,
"HIV-1 isolate 544 (protease changes: L10F K20R L33I M36I M46L I54V Q58E L63P A71V V82C L90M, study 6)",,92.5,58,,178,
"HIV-1 isolate 562 (protease changes: I13V I15V L33F I54L I64V T74A V82S, study 62)",,10,,16,,
"HIV-1 isolate 593 (protease changes: T12S K43R M46I I54V Q61H L63P V82F, study 7)",0.1,5.8,,30.8,19.2,
"HIV-1 isolate 595 (protease changes: L10I G48M I54V L63P A71I V77I V82A L90M, study 58)",350,101,180,,144,
"HIV-1 isolate 637 (protease changes: L10F M36I R57G I84V T91S, study 105)",3,12,,5,,
"HIV-1 isolate 704 (protease changes: L10I I15V G16E K20R E35D M36I R41K I54A R57K Q61D A71V I72R V82A L89I L90M Q92K, study 109)",62,97,143,197,,
"HIV-1 isolate 768 (protease changes: L10R M46I L63P V82T I84V, study 58)",1.3,5.3,5.1,,4.1,
"HIV-1 isolate 772 (protease changes: L10F M36I R57G I84V, study 105)",2,4,,2,,
"HIV-1 isolate 796 (protease changes: M46L V82A L90M, study 58)",0.6,0.8,1.3,,1.1,

Test System,fold change of IC50 against reference virus [1],fold change of IC50 against reference virus [2],fold change of IC50 against reference virus [3],fold change of IC50 against reference virus [4],fold change of IC50 against reference virus [5],fold change of IC50 against reference virus [6]
"HIV-1 isolate 797 (protease changes: V82T, study 62)",,3,,30,,
"HIV-1 isolate 963 (protease changes: K20R E35D M36I I54V L63P A71V V82T, study 62)",,6,,,,
"HIV-1 isolate 1039 (protease changes: D30N M46I V77I, study 58)",0.4,0.8,1.2,,30.1,
"HIV-1 isolate 1042 (protease changes: L10I M46I L63P A71V V77I I84V N88D L90M, study 58)",91.4,22.3,29.4,,48.6,
"HIV-1 isolate 1136 (protease changes: L10F G16E V32I M46I I47A R57G H69Y I84V T91S, study 105)",4,340,,21,,
"HIV-1 isolate 1252 (protease changes: K20R E35D M36I N37C I54V L63P V82A, study 62)",,10,,,,
"HIV-1 isolate 1304 (protease changes: E35D L63P, study 62)",,1,,,,
"HIV-1 isolate 1374 (protease changes: L10I K20R L33F E35D M36I R41K M46L I54V I62V L63P A71I V77I V82A I84T L90M I93L, study 88)",,48,,160,,
"HIV-1 isolate 1417 (protease changes: R57G, study 105)",1,1,,1,,
"HIV-1 isolate 1510 (protease changes: L10I L63P A71T I84V L90M, study 58)",8,2.4,2.6,,4.8,
"HIV-1 isolate 1518 (protease changes: L10I L33F M46L G48V I54V Q58E L63P A71V G73S V82A I84V L90M, study 6)",,87.4,20.4,,30.5,
"HIV-1 isolate 1529 (protease changes: L10F T12S I13V K20T V32I E35D M36I I47V I54L L63P I64V A71V G73S L90M, study 15)",15,67,19,44,,
"HIV-1 isolate 1558 (protease changes: M36I I50V L63P, study 58)",1.1,3.6,0.6,,1.4,
"HIV-1 isolate 1601 (reverse transcriptase changes: M41L D67N K70R K122E F214L T215Y A272P K277R A376T A400T D460N S468T H483Y K512Q S519N, study 143)",,,,,,180
"HIV-1 isolate 1605 (reverse transcriptase changes: K70R K122E F214L T215Y A272P K277R A376T A400T D460N S468T H483Y K512Q S519N, study 143)",,,,,,6
"HIV-1 isolate 1620 (reverse transcriptase changes: K65R D67N K70R K122E F214L T215Y K219Q A272P K277R M357T A376T A400T N447S D460N S468T S519N, study 81)",,,,,,1.3
"HIV-1 isolate 1625 (reverse transcriptase changes: L74V K122E F214L A272P K277R M357T A376T A400T N447S D460N S468T S519N, study 81)",,,,,,1.9
"HIV-1 isolate 1641 (protease changes: L10I M46L G48V I54V Q58E L63P A71V V77I V82A L90M, study 6)",,39.1,39.9,,44.1,
